Measurements published in patent US20170146519A1, “STING AGONISTS AND METHODS OF SELECTING STING AGONISTS” (priority 2015, published 2017).

Experiments:
[1] = tested on: Venezuelan Equine Encephalitis Virus (VEEV); type: cell-based
[2] = tested on: Chikungunya virus (CHIKV); type: cell-based

B1: IFNβ: Human recombinant IFNβ obtained from PBL, control stimulus at 1000 U/mL (protein, UniProt P01574 22-187, looked up)
Interferon beta: MSYNLLGFLQRSSNFQCQKLLWQLNGRLEYCLKDRMNFDIPEEIKQLQQFQKEDAALTIYEMLQNIFAIFRQDSSSTGWNETIVENLLANVYHQINHLKTVLEEKLEKEDFTRGKLMSSLHLKRYYGRILHYLKAKEYSHCAWTIVRVEILRNFYFINRLTGYLRN
- VEEV replication in cells lacking IRF3 [1]: strong anti-Alphaviral state can still be established
- VEEV replication in cells lacking IPS-1 ([1]; 24 h): diminishes replication of all three virus types by multiple logs
- VEEV replication in cells lacking STAT1 ([1]; 24 h): detectable yet significant
- VEEV replication in cells lacking STING ([1]; 24 h): antiviral state can effectively be established
- CHIKV replication in cells lacking IRF3 [2]: strong anti-Alphaviral state can still be established
- CHIKV replication in cells lacking IPS-1 ([2]; 48 h): diminishes replication of all three virus types by multiple logs
- CHIKV replication in cells lacking STAT1 ([2]; 48 h): detectable yet significant
- CHIKV replication in cells lacking STING ([2]; 48 h): antiviral state can effectively be established
